Experimental data reported in US20120322768A1, “COMPOUNDS, COMPOSITIONS AND METHODS FOR TREATING PROTOZOAN INFECTIONS” (QUEEN MARY & WESTFIELD COLLEGE, priority 2009, published 2012).

Tests used:
[1] = test system: bloodstream form T. brucei; test: Anti-proliferative assay on T. brucei bloodstream form (Alamar blue); type: cell-based; settings: read-out: IC50 T. bruccei, 3 days
[2] = test system: insect form Leishmania major; test: Growth inhibition of L. major promastigotes (Alamar blue); type: cell-based; settings: read-out: IC50 L. major, 6 days

Molecule | IC50 [1] [µM] | IC50 [2] [µM]
3-Fluoro-4-nitrobenzyl phosphoramide mustard | 3.2 | 9.05
CC1CS(=O)(=O)CCN1/N=C/c1ccc([N+](=O)[O-])o1 (stereo not drawn) [Nifurtimox, reference compound] | 1.8 | –
